We go through 64 compounds from US7875604B2, “Compounds that inhibit HIV particle formation” (University of Virginia Patent Foundation, priority 2004, dated 2011).

Where only a bound is given, the exact number is not on record here.

This data set deals with U1 cells latently infected with HIV-1. In words: U1 latency activation assay (TNF-α induced, supernatant reverse transcriptase). It counts as cell-based. Particulars: U1 cell assay, Table 8; ratio CC50 / IC50. The method, then:
U1 cells were obtained from the AIDS Research and Reference Reagent Program and maintained under standard culture conditions in RPMI 1640 supplemented with 10% fetal bovine serum (heat inactivated), 2 mM L-glutamine, 100 U/mL penicillin and 100 μg/mL streptomycin. U1 cells are derived from the histocytic leukemia cell line U937, and contain an integrated copy of a cytokine and/or phorbol inducible provirus (HIV-1IIIB). Cultures were maintained in such a way as to ensure exponential growth of the populations. Addition of TNF-α to the cell culture induces HIV-1, so that inhibition of virus production indicates an inhibition of a post-integration function of the HIV-1 life cycle. This is where an inhibitor of Rev function would be expected to act. […]
At the time of the assay, cells were collected by centrifugation and counted by hemacytometer. If cell viability by Trypan Blue dye exclusion was less than 70% the assay was terminated. The cells were adjusted to 5×10^4 cells/mL and 100 μL placed in 96 well plates with 100 μL media containing a final concentration of 5 ng/mL TNF-α and the test compound. Cultures were incubated for 3 days and supernatants harvested. Compound toxicity was determined by MTS dye reduction. Virus expression was measured by supernatant reverse transcriptase activity.
Reverse transcriptase was assayed to measure virus particle release as described above for the PBMC assay.
Compounds were tested in the U1 latency assay using the maximum high-test concentration possible based on the supplied stocks which are listed in table 3. Compounds were tested using the maximum high-test concentration possible based on the supplied stocks. Compounds were prepared at a 2× high-test concentration by combining drug stock with tissue culture media at a ratio of 5 μL of drug to 995 μL of media. This 2× high-test sample was subsequently serially diluted in tissue culture media using 1/2 log dilutions. This series of 2× concentrated drug was subsequently diluted 1:1 by combining with an equal volume of cells in media in the 96-well plates used for the assay. Temacrazine a known inhibitor of HIV transcription was used as a control compound that is active in the post-integration part of the HIV life cycle.
Compounds were tested using the maximum high-test concentration possible based on the supplied stocks. Compounds were prepared at a 2× high-test concentration by combining drug stock with tissue culture media at a ratio of 5 μL of drug to 995 μL of media. This 2× high-test (HT) sample was subsequently serially diluted in tissue culture media using 1/2 log dilutions. This series of 2× concentrated drug was subsequently diluted 1:1 by combining with an equal volume of cells in media in the 96-well plates used for the assay.
Take `Cc1cccc(-c2nc(Nc3ccc(I)cc3)c3ccccc3n2)c1` [Compound 718]: the TI is reported as 1.06. In the case of `Clc1ccccc1Nc1nc(-c2ccc(Br)cc2)nc2ccccc12` [Compound 731] it was greater than 45.5; in that of `O=C(Nc1cccc(C(F)(F)F)c1)c1sc(Cl)nc1C(F)(F)F` [Compound 414], 1.01; in that of `COC(=O)c1ccc(Nc2nc(-c3ccccc3Cl)nc3ccccc23)cc1` [Compound 728], 1.31.

On to `NC(=O)c1sc2nc(-c3cccs3)cc(-c3ccc(F)cc3)c2c1N` [Compound 322], for which the TI is reported as 1.97. In the case of `O=C(NCc1ccccn1)c1cc(Cl)nnc1Cl` [Compound 515] it was greater than 5.51; in that of `Cc1ccc(NC(=O)c2sc(Cl)nc2-c2ccccc2)c(C)c1` [Compound 423], greater than 1.77; in that of `Cc1cc2c(N)c(C(N)=O)sc2nc1-c1ccc(F)cc1` [Compound 330], greater than 10.9. The same measure for `NC(=O)c1sc2nc3ccccc3cc2c1N` [Compound 337]: greater than 31.3.

In the case of `COc1ccc(-c2cnc(S(C)(=O)=O)nc2)cc1` [Compound 615], the TI is reported as greater than 6.30. The same measure for `CCOC(=O)c1c2c(nc3sc(C(N)=O)c(N)c13)CCCC2` [Compound 327]: 109; for `O=C(c1cc(Cl)nnc1Cl)N1CCOCC1` [Compound 512]: greater than 2.85; for `NC(=O)c1sc2nc3c(cc2c1N)CCCC3` [Compound 321]: greater than 38.7. In the case of `COc1ccc(-c2cc(-c3ccccc3)nc3sc(C(N)=O)c(N)c23)cc1` [Compound 335] it was 38.2. The same measure for `Cc1nc(Cl)sc1C(=O)Nc1ccc(C(F)(F)F)cc1` [Compound 418]: greater than 34.4; for `CCc1c(C)nc2sc(C(=O)NCC(=O)O)c(N)c2c1C` [Compound 331]: greater than 1.14. As for `COc1ccc(-c2cnc(OC(C)(C)C)nc2OC(C)(C)C)cc1` [Compound 618], the TI was found to be 2.93. The same measure for `COc1ccc2cc3c(N)n[nH]c3nc2c1` [Compound 89246, 7-methoxy-1H-pyrazolo[3,4-b]quinolin-3-ylamine]: greater than 169; for `CC(=O)Nc1ccc(Nc2nc(-c3ccccc3)nc3ccccc23)cc1` [Compound 754]: 4.09. In the case of `COc1ccc(-c2cc(-c3ccc(OC)cc3)c3c(N)c(C(N)=O)sc3n2)cc1` [Compound 339] it was 29.9.

Take `NC(=O)c1sc2nc3c(cc2c1N)CCC3` [Compound 324]: the TI is greater than 34.2. In the case of `NC(=O)c1sc2nc(Cc3ccccc3)cc(C(F)(F)F)c2c1N` [Compound 334] it was greater than 31.6; in that of `CN(C)c1ccnc2sc(C(N)=O)c(N)c12` [Compound 325], greater than 267; in that of `CN1CCc2nc3sc(C(N)=O)c(N)c3cc2C1` [Compound 319], greater than 1.86. The same measure for `Cc1nc(Cl)sc1C(=O)Nc1ccc(C(C)(C)C)cc1` [Compound 420]: greater than 11.0. The same measure for `Cc1n[nH]c2nc3ccc(Cl)cc3c(-c3ccccc3)c12` [Compound 111]: greater than 29.4. As for `COc1ccccc1NC(=O)c1cc(Cl)nnc1Cl` [Compound 511], the TI is on record as 1.21. In the case of `CCCc1ccc2c(N)c(C(N)=O)sc2n1` [Compound 329] it was 28.8; in that of `COc1ccccc1Nc1nc(-c2ccccc2O)nc2ccccc12` [Compound 751], greater than 1.05. On to `Cc1cc(C(F)(F)F)c2c(N)c(C(N)=O)sc2n1` [Compound 318], for which the TI is listed as greater than 316.

For the compound `COc1ccc(Nc2nc(-c3ccccc3F)nc3ccccc23)cc1` [Compound 749], the TI is given as 9.51. The same measure for `Nc1c2c(nc3ccc([N+](=O)[O-])cc13)CCCC2=O` [Compound 213]: 70.9. The same measure for `Cc1n[nH]c2nc3ccc(Br)cc3c(-c3ccccc3)c12` [Compound 112]: greater than 46.3.

Regarding `Cc1nc(Oc2ccccc2)c2ccccc2n1` [Compound 756], the TI was found to be 29.9.

With `COc1ccc2nc3c(c(N)c2c1)CCCC3` [Compound 211], the TI was determined as 5.32. The same measure for `CN1CCN(C(=O)c2cc(Cl)nnc2Cl)CC1` [Compound 513]: greater than 10.6; for `Cc1ccc(NC(=O)c2sc(Cl)nc2-c2ccccc2)cc1C` [Compound 422]: greater than 5.24; for `Cc1ccc(Nc2ncnc3ccccc23)cc1C` [Compound 719]: greater than 43.4. In the case of `C=CCc1c(C)nc2ccc(OC)cc2c1N` [Compound 214] it was greater than 8.16. The same measure for `Cc1ccc(-c2cc(-c3ccccc3)nc3sc(C(N)=O)c(N)c23)cc1` [Compound 323]: 30.3.

As to `Cc1ccc(NC(=O)c2sc(Cl)nc2C)cc1` [Compound 417], the TI amounted to 32.0. The same measure for `COCc1cc(C)nc2sc(C(N)=O)c(N)c12` [Compound 320]: greater than 144; for `O=C(Nc1ccccc1)c1sc(Cl)nc1C(F)(F)F` [Compound 412]: 3.10. In the case of `Cc1ccc(NC(=O)c2sc(Cl)nc2C)cc1C` [Compound 416] it was greater than 97.8; in that of `N#Cc1c(C(F)(F)F)nc2ccc(F)cc2c1N` [Compound 212], 59.1; in that of `COc1cc2cc(C(=O)Nc3ccccc3)c(N)nc2cc1OC` [Compound 113], greater than 2.74. In the case of `O=C(Nc1ccccc1F)c1sc(Cl)nc1C(F)(F)F` [Compound 415] it was 1.37; in that of `CC1CCc2nc3sc(C(N)=O)c(N)c3cc2C1` (stereo not shown) [Compound 336], greater than 25.7; in that of `Cc1ccc(-c2cc(C(F)(F)F)c3c(N)c(C(N)=O)sc3n2)cc1` [Compound 332], less than 0.30. Turning to `COc1ccc(-c2c(C(C)=O)c(C)nc3sc(C(N)=O)c(N)c23)cc1` [Compound 311], the TI is on record as greater than 45.5. With `Cc1nc2sc(C(N)=O)c(N)c2c(C)c1CC(=O)c1ccccc1` [Compound 315], the TI was greater than 100. The same measure for `Cc1ccc2c(N)c(C(N)=O)sc2n1` [Compound 314]: greater than 35.5; for `COc1cc2cc3c(=O)[nH]c(-c4ccc(C)cc4)nc3nc2cc1OC` [Compound 114]: greater than 5.21; for `Clc1ccc(-c2nc(Nc3ccc(Oc4ccccc4)cc3)c3ccccc3n2)cc1` [Compound 753]: 1.02.

Consider `NC(=O)c1sc2nc(-c3cccnc3)ccc2c1N` [Compound 316], for which the TI was greater than 3.21.

With `CCOC(=O)c1ccc(Nc2ncnc3ccccc23)cc1` [Compound 720], the TI is given as greater than 20.5.

With `CC(=O)c1ccc(Nc2nc(-c3ccccc3)nc3ccccc23)cc1` [Compound 755], the TI was greater than 42.1. `CCOC(=O)c1c(C)nc2sc(C(N)=O)c(N)c2c1-c1ccccc1` [Compound 338]: the TI is greater than 14.3. In the case of `Fc1ccccc1-c1nc(Nc2cccc(C(F)(F)F)c2)c2ccccc2n1` [Compound 748] it was 3.14; in that of `O=C(Nc1cccc(F)c1)c1sc(Cl)nc1C(F)(F)F` [Compound 413], 2.45. The same measure for `FC(F)(F)c1cccc(Nc2nc(-c3ccccc3)nc3ccccc23)c1` [Compound 722]: 1.60; for `Brc1ccc(Nc2nc(-c3ccncc3)nc3ccccc23)cc1` [Compound 734]: greater than 3.07.

For `Cc1cc2c(N)c(C(N)=O)sc2nc1C` [Compound 328], the TI turned out to be 34.9. In the case of `CSc1ncc2c(n1)[nH]c1ccccc12` [Compound 616], the TI was greater than 82.0.
